Pooled drug test results. Numbers come from NIAID ChemDB, via PubChem.

Common to all: tests in culture; organism: HIV-1; read by: cytopathic effect / XTT; endpoint: EC50

Rows are shuffled and stem from different studies.

compound | strain | cells | mutations | value
COc1cc(-c2ccc(N=Nc3ccc4c(S(=O)(=O)O)cc(S(=O)(=O)O)c(N)c4c3O)c(OC)c2)ccc1N=Nc1ccc2c(S(=O)(=O)O)cc(S(=O)(=O)O)c(N)c2c1O | LAV | CEM + CEM-SS | - | 0.9 µM
Cc1cc2c(cc1Cl)SC(C(=O)c1cccc([N+](=O)[O-])c1)=NS2(=O)=O | - | CEM | - | 77.5 µM
CC(C)=CCOc1cc(NC(=S)c2ccsc2C)ccc1Cl | NL4-3 (RT V179D) | CEM + CEM-SS | RT-V179D | 0.006 µM
CC(C)O[C@H]1N([C@H]2C[C@H](N=[N+]=[N-])[C@@H](CO)O2)C(=O)NC(=O)[C@]1(C)Cl | RF | CEM + CEM-SS | - | >200 µM
Nc1nc(=O)n([C@H]2C=C[C@@H](OCP(=O)(O)O)O2)cc1I | IIIB | CEM | - | >100 µg/mL
CCOC(=O)c1cccn1S(=O)(=O)c1cc(Cl)ccc1NS(=O)(=O)c1ccc(C)cc1 | IIIB | MT-4 | - | >41 µM
OC[C@@H]1C=C[C@H](n2cnc3c(Cl)ncnc32)C1 | - | MT-2 | - | >10 µg/mL
CCCCCCCCCCCCCCOP(=O)(O)OCCC=C(c1cc(Cl)c(O)c(C(=O)O)c1)c1cc(Cl)c(O)c(C(=O)O)c1 | RF | CEM + CEM-SS | - | >101 µM
COc1cc(C)c(-c2ccc(O)c3c2C[C@@H](C)N[C@@H]3C)c2ccc(-c3ccc4c(-c5ccc(O)c6c5C[C@@H](C)N[C@@H]6C)c(C)cc(OC)c4c3O)c(O)c12 | RF | CEM + CEM-SS | - | 27 µg/mL
Cc1cc(S(=O)(=O)N2CCNC2=O)c(SC(=O)c2ccccc2)cc1Cl | - | CEM | - | 51.7 µM
O=C(O)c1cc(Cc2ccc(O)c(C(=O)O)c2)ccc1O | IIIB | CEM | - | >350 µM
CCNCC(=O)Nc1ccc(Cl)cc1S(=O)(=O)n1cccc1C(=O)OCC | IIIB | MT-4 | - | 1 µM
O=C(NCCc1ccccc1)Nc1nc2ccc(F)cc2s1 | - | MT-4 | - | <1 µg/mL
Cc1cnc2n1S(=O)(=O)c1cc(C(=O)NCC(C)C)c(Cl)cc1S2 | - | CEM | - | >200 µM
S=C(NCCc1ccc(Cl)cc1)Nc1nccs1 | - | MT-4 | - | <10 µg/mL
CCOC(=O)c1ccc2n1S(=O)(=O)c1cc(Cl)ccc1N2C(N)=O | IIIB | MT-4 | - | 34 µM
CCO[C@H]1N([C@H]2C[C@H](N=[N+]=[N-])[C@@H](CO)O2)C(=O)NC(=O)[C@]1(C)Cl | RF | CEM + CEM-SS | - | >200 µM
COC(=O)C(=O)c1csc(NC(=O)NCCc2ccccc2)n1 | - | MT-4 | - | >100 µg/mL
O=c1[nH]c(=O)n([C@H]2C=C[C@@H](OCP(=O)(O)O)O2)cc1Cl | IIIB | CEM | - | 10–24 µg/mL
CCCCCCCCO[C@H]1N([C@H]2C[C@H](N=[N+]=[N-])[C@@H](CO)O2)C(=O)NC(=O)[C@]1(C)Cl | RF | CEM + CEM-SS | - | >27.5 µM
C=Cc1cn([C@H]2C=C[C@@H](OCP(=O)(O)O)O2)c(=O)[nH]c1=O | IIIB | MT-2 | - | >100 µg/mL
S=C(NCCc1ccccc1)N1CCCCC1 | - | MT-4 | - | >10 µg/mL
O=C(C1=NS(=O)(=O)c2ccc(Cl)cc2S1)c1ccc2ccccc2c1 | - | CEM | - | 54.5 µM
Cn1cc(NC(=O)Nc2cc(C(=O)Nc3cc(C(=O)Nc4ccc(P(=O)(O)O)c5cc(P(=O)(O)O)ccc45)n(C)c3)n(C)c2)cc1C(=O)Nc1cc(C(=O)Nc2ccc(P(=O)(O)O)c3cc(P(=O)(O)O)ccc23)n(C)c1 | IIIB | CEM + CEM-SS | - | 1.3 µM
Cc1nnc(NC(=O)NCCc2ccccc2)s1 | - | MT-4 | - | >100 µg/mL
Cc1cc(S(=O)(=O)NC2=NCCN2)c(SCC(N)=O)cc1Cl | - | CEM | - | 113 µM
CCOC(=O)c1cccn1S(=O)(=O)c1cc(Cl)ccc1NC(=O)Oc1ccc(C)cc1 | IIIB | MT-4 | - | 152.5 µM
Nc1nc(N)c2nnn([C@H]3C=CC[C@@H](CO)C3)c2n1 | RF | CEM + CEM-SS | - | >50 µg/mL
Oc1ccc([C@H]2c3c(O)cc(O)c(O)c3-c3c(-c4ccc(O)c(O)c4)oc4cc(O)cc(c34)[C@H]2O)cc1 | RF | CEM + CEM-SS | - | >21 µg/mL
Nc1nc2c(nnn2[C@H]2C=CC[C@@H](CO)C2)c(=O)[nH]1 | RF | CEM + CEM-SS | - | >50 µg/mL
CCOC(=O)c1cccn1S(=O)(=O)c1cc(Cl)ccc1NC(=O)CN1CCN(C(C)=O)CC1 | IIIB | MT-4 | - | 16.5 µM
Cc1cn([C@H]2C=C[C@@H](OCP(=O)(O)O)O2)c(=O)[nH]c1=O | IIIB | MT-2 | - | 85 µg/mL
Nc1nc2c(ncn2[C@H]2C=C[C@@H](CO)C2)c(=O)[nH]1 | - | CEM | - | 0.51 µg/mL
CCCCCCCCCCCCCCCCO[C@H]1N([C@H]2C[C@H](N=[N+]=[N-])[C@@H](CO)O2)C(=O)NC(=O)[C@]1(C)Cl | RF | CEM + CEM-SS | - | >31 µM
Cn1cc(NC(=O)Nc2cc(C(=O)Nc3cc(C(=O)Nc4ccc(S(=O)(=O)O)c5cc(S(=O)(=O)O)cc(S(=O)(=O)O)c45)n(C)c3)n(C)c2)cc1C(=O)Nc1cc(C(=O)Nc2ccc(S(=O)(=O)O)c3cc(S(=O)(=O)O)cc(S(=O)(=O)O)c23)n(C)c1 | RF | CEM + CEM-SS | - | 31.6 µM
C/C1=C\CC(C)(C)/C=C/C(=O)/C(C)=C/CC1 | RF | CEM(SS) + CEM-SS | - | 0.04 µg/mL
CC/C=C\C/C=C\C/C=C\CCCCCCCC(=O)OC[C@@H](CO[C@H]1O[C@H](CS(=O)(=O)O)[C@@H](O)[C@H](O)[C@H]1O)OC(=O)CCCCCCCCCCCCCCC | - | CEM | - | <100 µg/mL
CC(C)=CCN1Cc2cc(Cl)cc3[nH]c(=O)n(c23)C[C@@H]1C | IIIB | MT-4 | - | 0.25 µM
CCCCCCCCCCCCCCc1sc(NC(=O)NCCc2ccccc2)nc1-c1ccc(Cl)cc1 | - | MT-4 | - | >100 µg/mL
COc1ccc(C(=O)C2=NS(=O)(=O)c3cc(C)c(Cl)cc3S2)cc1 | - | CEM | - | 205.8 µM
O=C(NCCc1ccccc1)Nc1cncc(Cl)n1 | - | MT-4 | - | <1 µg/mL
CCOC(=O)c1cccn1S(=O)(=O)c1cc(Cl)ccc1NC(=O)C(C)(C)C | IIIB | MT-4 | - | >42 µM
CN1C(=O)[C@@H](Cc2ccccc2)NC1=S | - | MT-4 | - | >10 µg/mL
Cc1cc(Cl)cc2c1S(=O)(=O)n1ccnc1S2 | - | CEM | - | >200 µM
O=C(O)c1cc(C(=CCC23CC4CC(CC(C4)C2)C3)c2cc(Cl)c(O)c(C(=O)O)c2)cc(Cl)c1O | RF | CEM + CEM-SS | - | >105 µM
COc1cccc2c1N(C(=O)OC(C)C)C(CSC)C(=S)N2 | IIIB | MT-4 | RT-L100I | 0.07 µM
CC(C)=CCOc1cc(NC(=S)c2ccoc2C)ccc1Cl | NL4-3 (RT A98G) | CEM + CEM-SS | RT-A98G | 0.02 µM
COc1cc(-c2ccc(N=Nc3ccc4c(S(=O)(=O)O)cc(S(=O)(=O)O)c(N)c4c3O)c(OC)c2)ccc1N=Nc1ccc2c(S(=O)(=O)O)cc(S(=O)(=O)O)c(N)c2c1O | IIIB | CEM + CEM-SS | - | 0.6 µM
O=S(=O)(O)Oc1cc2c(ccn2S(=O)(=O)O)c(Cl)c1O | - | CEM + CEM-SS | - | 10.7 µg/mL
OC[C@@H]1CC=C[C@H](n2cnc3c(Cl)ncnc32)C1 | RF | CEM + CEM-SS | - | >50 µg/mL
O=c1cc(-c2cccc3c2Sc2ccccc2S3)oc(N2CCOCC2)c1 | RT-K65R M184V | C8166 | - | 4.9 µM
COc1ccc2c(c1O)-c1c(O)c(OC)cc3c1[C@H](C2)[N+](C)(C)CC3 | RF | CEM + CEM-SS | - | 25–50 µg/mL
Cn1cc(N)cc1C(=O)Nc1cc(C(=O)Nc2ccc3cc(S(=O)(=O)O)cc(S(=O)(=O)O)c3c2)n(C)n1 | RF | CEM + CEM-SS | - | 19.5 µM
Cc1cc(Cl)cc2c1S(=O)(=O)N=C(C(=O)c1ccc(Cl)cc1)S2 | - | CEM | - | 256.7 µM
Cc1cc(S(=O)(=O)n2cccc2)c(SCC(N)=O)cc1Cl | - | CEM | - | 5.9 µM
OC[C@@H]1C=C[C@H](n2cnc3c(=S)nc[nH]c32)C1 | - | MT-2 | - | >10 µg/mL
Nc1ncnc2c1ncn2[C@H]1C=CC[C@@H](CO)C1 | RF | CEM + CEM-SS | - | >50 µg/mL
Cc1cc2c(cc1Cl)SC(C(=O)c1ccc([N+](=O)[O-])cc1)=NS2(=O)=O | - | CEM | - | 52.5 µM
O=C(O)c1cc(C(c2ccc(O)c(C(=O)O)c2)c2ccc(O)c(C(=O)O)c2)ccc1O | IIIB | CEM | - | 77 µM
CCOC(=O)c1cccn1S(=O)(=O)c1cccc(NC(C)=O)c1 | IIIB | MT-4 | - | >200 µM
Cc1cc(Cl)cc2c1S(=O)(=O)N=C(C(=O)c1ccc3ccccc3c1)S2 | - | CEM | - | >200 µM
CCOC(=O)c1cccn1S(=O)(=O)c1cc(Cl)ccc1NC(=O)CS(C)(=O)=O | IIIB | MT-4 | - | 20 µM
Cc1cc(S(=O)(=O)N2CCNC2=O)c(SCC(N)=O)cc1Cl | - | CEM | - | >200 µM
CCC(=O)c1ccc(F)c([C@H]2C[C@H]2NC(=O)Nc2ccc(Br)cn2)c1O | IIIB | MT-4 | RT-Y181C | 0.1 µM

Repeating the final 9 entries:

compound	strain	cells	mutations	value
OC[C@@H]1C=C[C@H](n2cnc3c(=S)nc[nH]c32)C1	-	MT-2	-	>10 µg/mL
Nc1ncnc2c1ncn2[C@H]1C=CC[C@@H](CO)C1	RF	CEM + CEM-SS	-	>50 µg/mL
Cc1cc2c(cc1Cl)SC(C(=O)c1ccc([N+](=O)[O-])cc1)=NS2(=O)=O	-	CEM	-	52.5 µM
O=C(O)c1cc(C(c2ccc(O)c(C(=O)O)c2)c2ccc(O)c(C(=O)O)c2)ccc1O	IIIB	CEM	-	77 µM
CCOC(=O)c1cccn1S(=O)(=O)c1cccc(NC(C)=O)c1	IIIB	MT-4	-	>200 µM
Cc1cc(Cl)cc2c1S(=O)(=O)N=C(C(=O)c1ccc3ccccc3c1)S2	-	CEM	-	>200 µM
CCOC(=O)c1cccn1S(=O)(=O)c1cc(Cl)ccc1NC(=O)CS(C)(=O)=O	IIIB	MT-4	-	20 µM
Cc1cc(S(=O)(=O)N2CCNC2=O)c(SCC(N)=O)cc1Cl	-	CEM	-	>200 µM
CCC(=O)c1ccc(F)c([C@H]2C[C@H]2NC(=O)Nc2ccc(Br)cn2)c1O	IIIB	MT-4	RT-Y181C	0.1 µM

An empty or dashed field is not shown. ECn: concentration that inhibits the pathogen or its effect by n%. a–b is a range or a potency band.